For this series, the target named is ICP8 (Herpes simplex virus 1) (UniProt P04296). Nature of the series: EMSA. The settings on record: DMSO control, 5 mM Mg2+; 20 mM Tris-HCl pH 7.5, 4% glycerol, 0.1 mg/mL BSA, 0.5 mM DTT, 5 mM MgCl2, […], binding 30 min at room temperature ([…]) or 37 C ([…]; recombinant protein; single-stranded DNA.

The chains behind the UniProt entries cited, without tags or fusion partners. Where a name states a change or a piece, a line headed by the entry shows the natural chain unless it says otherwise.
UniProt P04296: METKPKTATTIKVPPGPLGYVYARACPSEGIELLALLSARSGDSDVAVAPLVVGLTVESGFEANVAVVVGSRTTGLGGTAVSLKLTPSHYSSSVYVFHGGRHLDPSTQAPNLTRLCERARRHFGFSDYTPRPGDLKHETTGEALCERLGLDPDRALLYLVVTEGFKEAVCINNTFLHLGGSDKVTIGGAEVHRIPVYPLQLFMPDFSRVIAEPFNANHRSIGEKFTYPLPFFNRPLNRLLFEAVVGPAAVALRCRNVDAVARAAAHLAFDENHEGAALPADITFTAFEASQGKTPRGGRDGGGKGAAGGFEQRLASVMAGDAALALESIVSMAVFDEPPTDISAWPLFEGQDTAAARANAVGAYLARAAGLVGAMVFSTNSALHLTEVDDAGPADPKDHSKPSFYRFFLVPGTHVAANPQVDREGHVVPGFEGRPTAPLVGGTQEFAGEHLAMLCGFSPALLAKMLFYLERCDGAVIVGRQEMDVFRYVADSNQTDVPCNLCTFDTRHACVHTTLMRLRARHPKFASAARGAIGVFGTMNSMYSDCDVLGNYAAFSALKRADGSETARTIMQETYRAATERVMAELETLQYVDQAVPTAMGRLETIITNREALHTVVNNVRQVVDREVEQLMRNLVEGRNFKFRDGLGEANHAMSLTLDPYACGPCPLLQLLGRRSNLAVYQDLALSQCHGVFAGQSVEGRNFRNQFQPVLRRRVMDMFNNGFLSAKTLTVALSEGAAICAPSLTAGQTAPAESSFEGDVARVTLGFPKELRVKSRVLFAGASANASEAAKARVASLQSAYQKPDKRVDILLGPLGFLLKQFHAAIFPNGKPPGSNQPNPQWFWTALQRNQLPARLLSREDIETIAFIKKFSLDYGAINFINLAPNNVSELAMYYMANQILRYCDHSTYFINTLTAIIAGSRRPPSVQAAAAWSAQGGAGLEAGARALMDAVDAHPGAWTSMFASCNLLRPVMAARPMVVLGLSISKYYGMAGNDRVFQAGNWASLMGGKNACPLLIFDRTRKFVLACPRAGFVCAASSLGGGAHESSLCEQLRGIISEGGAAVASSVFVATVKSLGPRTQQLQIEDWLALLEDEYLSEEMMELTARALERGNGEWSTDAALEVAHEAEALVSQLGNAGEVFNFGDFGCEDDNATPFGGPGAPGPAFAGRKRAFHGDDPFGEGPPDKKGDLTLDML

Construct, isoform or probe ends are uncertain for at least one entry. At least one verdict was read from the data and is not stated in words by the source.

As to TTTTTTTTTTTTTTTTTTTTTTTTT [Cy5-dT25], the binding result is “binds”.

(Values after PMC8787488, “Two-Metal Ion-Dependent Enzymes as Potential Antiviral Targets in Human Herpesviruses” (mBio, 2022).)
